Results: PMC9251361, “Effects of LPS Composition in Escherichia coli on Antibacterial Activity and Bacterial Uptake of Antisense Peptide-PNA Conjugates” (Frontiers in Microbiology, 2022)

Tested on: E. coli mutant strains compared with MG1655
Experiment: Flow cytometry uptake of BODIPY-labeled (KFF)3K-PNA
Format: cell-based, Escherichia coli
Settings: 2 μM PNA5873 in PBS, 1 h, room temperature, mean bacterial fluorescence, triplicate

H-(KFF)3K-eg1-Cys(BODIPY)- [PNA5873, BODIPY fluorophore-labeled (KFF)3K mismatch PNA; mm for PNA5872]
uptake by flow cytometry (inner core LPS mutants vs wild type MG1655): higher fraction | uptake by flow cytometry (tolB and tolQ mutants vs wild type): increased
